Measured values from several laboratories, pooled; numbers as filed in NIAID ChemDB.

Common to all: tests in culture

Blank or dashed fields: not listed here. Two numbers with a dash give a range or band. Neighbouring rows are from separate reports. MIC50, MIC90 and the like: level of inhibition, or share of isolates inhibited. Zone: diameter of growth inhibition.

smiles | dose | read by | strain | endpoint | species | result
C[C@H]1[C@H](O)[C@@H](C)/C=C/C=C/C=C/C=C/C=C/C=C/C=C/[C@H](O[C@@H]2O[C@H](C)[C@@H](O)[C@H](N)[C@@H]2O)C[C@@H]2O[C@](O)(C[C@@H](O)C[C@@H](O)CC[C@H](O)[C@@H](O)C[C@@H](O)CC(=O)O[C@H]1C)C[C@H](O)[C@H]2C(=O)O |  |  | 60 isolates | MIC50 | Aspergillus fumigatus | 0.5 µg/mL
CC(=O)OC[C@H]1O[C@@H](Sc2nnc(-c3cccnc3)n2/N=C/c2ccccc2)[C@H](OC(C)=O)[C@@H](OC(C)=O)[C@@H]1OC(C)=O | 2.5 mg/mL | agar diffusion / agar |  | zone | Aspergillus fumigatus | 1–5 mm
COc1ccc(-c2csc(NS(=O)(=O)C3C(=O)ONN3c3ccc(C)cc3)n2)cc1 | 250 µg/mL | agar diffusion | MTCC323 | zone | Aspergillus clavatus | 21 mm
[Al]#[P] |  | agar |  | MIC | Aspergillus terreus | 3 µg/mL
CC(C)c1cc2c(c(O)c1O)[C@@]13CCCC(C)(C)C1C[C@@H]2OC3=O |  | broth dilution |  | MIC | Aspergillus tubingensis | 300 µg/mL
Cc1ccc(N2NOC(=O)C2S(=O)(=O)Nc2nc3ccc(F)cc3s2)cc1 |  | broth dilution | MTCC323 | MIC | Aspergillus clavatus | 1000 µg/mL
C[C@@H](c1ncncc1F)[C@](O)(Cn1cncn1)c1ccc(F)cc1F |  |  | NFI 4001 | MFC | Aspergillus fumigatus | 2 µg/mL
COc1ccc(/C=N/n2c(S[C@@H]3O[C@H](COC(C)=O)[C@@H](OC(C)=O)[C@H](OC(C)=O)[C@H]3OC(C)=O)nnc2-c2cccnc2)cc1 | 5 mg/mL | agar diffusion / agar |  | zone | Aspergillus fumigatus | 1–5 mm
CC1=CC(=O)c2c(O)cccc2C1=O |  | broth dilution | CCAM 080006 | MFC100 | Aspergillus oryzae | 2.5 µg/mL
Cc1ccc(N2NOC(=O)C2S(=O)(=O)Nc2nc(-c3c(F)cc(Cl)cc3Cl)cs2)cc1 |  | broth dilution | MTCC323 | MIC | Aspergillus clavatus | 1000 µg/mL
O=C/C=C/c1ccccc1 |  | agar | UAB698 | MIC | Aspergillus terreus | 500 µM
CC(=O)OC[C@H]1O[C@@H](n2[nH]c(-c3cccnc3)nc2=S)[C@H](OC(C)=O)[C@@H](OC(C)=O)[C@@H]1OC(C)=O | 1 mg/mL | agar diffusion / agar |  | zone | Aspergillus fumigatus | 1–5 mm
COc1cccc(C=O)c1O |  | agar | UAB673 | MIC | Aspergillus terreus | 500 µM
CC(=O)OC[C@H]1O[C@@H](n2nc(-c3cccnc3)n(N)c2=S)[C@H](OC(C)=O)[C@@H](OC(C)=O)[C@@H]1OC(C)=O | 2.5 mg/mL | agar diffusion / agar |  | zone | Aspergillus fumigatus | 1–5 mm
COc1ccc(O)c(C=O)c1 |  | agar | UAB680 | MIC | Aspergillus terreus | 500 µM
CC(C)c1cc2c(c(O)c1O)[C@@]1(C(=O)O)CCCC(C)(C)C1CC2 | 400 µg/mL | agar diffusion |  | zone | Aspergillus tubingensis | 5.2 mm
OC[C@H]1O[C@@H](n2[nH]c(-c3cccnc3)nc2=S)[C@H](O)[C@@H](O)[C@@H]1O | 5 mg/mL | agar diffusion / agar |  | zone | Aspergillus fumigatus | 1–5 mm
Cc1ccc(N2NOC(=O)C2S(=O)(=O)Nc2nc(-c3ccc(Cl)cc3Cl)cs2)cc1 | 250 µg/mL | agar diffusion | MTCC323 | zone | Aspergillus clavatus | 22 mm
CN(C/C=C/C#CC(C)(C)C)Cc1cccc2ccccc12 |  |  | NFI 0239 | MIC | Aspergillus fumigatus | 2 µg/mL

The last 2 rows once more:

smiles	dose	read by	strain	endpoint	species	result
Cc1ccc(N2NOC(=O)C2S(=O)(=O)Nc2nc(-c3ccc(Cl)cc3Cl)cs2)cc1	250 µg/mL	agar diffusion	MTCC323	zone	Aspergillus clavatus	22 mm
CN(C/C=C/C#CC(C)(C)C)Cc1cccc2ccccc12			NFI 0239	MIC	Aspergillus fumigatus	2 µg/mL